Pooled drug test results. Numbers come from NIAID ChemDB, via PubChem.

Common to all: whole-cell or culture tests; agent: Plasmodium falciparum

ECn is the concentration giving n% inhibition of infection, replication or growth. An empty or dashed field is not shown. Conditions beyond the fields shown may differ between rows.

structure,cells,method,endpoint,conditions,strain,mutations,value
NC1=Nc2ccc(Cl)cc2[C@]1(O)c1ccccc1,-,-,EC50,-,3D7,-,0.313 µM
O=C(/C=C/C=C/c1ccc2c(c1)OCO2)c1ccc(Br)cc1,-,SYBR Green / fluorescence,EC50,-,Dd2,-,74 µM
CCc1nc2nc(C)cc(Nc3ccc(Cl)cc3)n2n1,-,-,EC50,-,3D7,-,3.3 µM
COc1ccc(Cn2c(N)c(-c3nc4ccccc4[nH]3)c3nc(C#N)c(C#N)nc32)cc1OC,Erythrocytes,hypoxanthine uptake / radiometric,EC50,-,NF54,-,1.98 µM
C[C@H](NC(=O)[C@@H](O)c1cc(F)cc(F)c1)C(=O)N[C@@H]1C(=O)N(C)c2ccccc2-c2ccccc21,-,-,EC50,-,-,-,0.1 µM
COc1ccc2c(c1)C(O)(c1ccccc1)C(N)=N2,-,-,EC50,-,Dd2,-,0.385 µM
O=c1cc(CNCCCCCCNc2ccnc3cc(Cl)ccc23)n(C2CC2)cc1Oc1ccccc1,-,radiometric,EC50,-,K1,-,0.03 µM
COc1cc2nc(N3CCCN(C)CC3)nc(NC3CCN(Cc4ccccc4)CC3)c2cc1OC,-,fluorescence,EC50,-,7G8,-,0.04 µM
CCN(CCO)CCCC(C)Nc1ccnc2cc(Cl)ccc12,-,-,EC50,-,3D7,-,0.0128 µM
O=C(Nc1cc(C(F)(F)F)ccc1-n1cncn1)C1(c2ccccc2F)CC1,-,-,EC50,-,3D7A,-,0.052 µM
CCN(CC)CCCC(C)Nc1ccnc2cc(Cl)ccc12,-,LDH / absorbance,EC50,-,Dd2,-,0.1018 µM
CCCCCCCCCCCCOc1cccc(C2(O)NC(=O)c3cnccc32)c1,-,broth dilution / radiometric,EC50,-,-,-,>2500 µM
COc1ccc(Nc2nc(NCCCCNc3ccnc4cc(Cl)ccc34)nc(N3CCOCC3)n2)cc1,-,-,EC50,-,D6,-,0.07 µM
N#Cc1nc2c(-c3nc4ccccc4[nH]3)c(N)n(Cc3ccc4c(c3)OCO4)c2nc1C#N,Erythrocytes,hypoxanthine uptake / radiometric,EC50,-,NF54,-,0.32 µM
COc1cc(OC)c(OC)cc1/C=C/C=C/C(=O)c1ccc2ccccc2c1,-,SYBR Green / fluorescence,EC50,-,INDO,-,31 µM
O=C1[C@@H](NCCNc2ccnc3cc(Cl)ccc23)[C@@H](/C=C/c2ccccc2)N1C1CCCCCC1,-,flow cytometry,EC50,-,W2,Chloroquine-resistant,0.1223 µM
COc1ccc(C2=C(O)c3ccccc3C(=O)C2=O)cc1,Erythrocytes,flow cytometry,EC50,-,3D7,-,16 µM
ClCCl,Human dermal fibroblasts,MTT,EC50,-,D10,-,47 µg/mL
Fc1ccc(Nc2nc(NCCNc3ccnc4cc(Cl)ccc34)nc(N3CCOCC3)n2)cc1,-,-,EC50,-,D6,-,0.24 µM
CCCCCC,Human dermal fibroblasts,MTT,EC50,-,W2,CQ-resistant,30 µg/mL
Cc1ccc(N(C)C(=O)c2c[n+]3c(cn2)CN=C3c2ccc(C(F)(F)F)cc2)nn1,-,SYBR Green,EC50,-,-,-,>10 µM
O=C(/C=C/C=C/c1ccc(Cl)cc1)c1ccc(Br)cc1,-,SYBR Green / fluorescence,EC50,-,3D7,-,22.5 µM
O=C(Nc1cc(C(F)(F)F)ccc1-n1cncn1)C1(c2cccc(C(F)(F)F)c2)CC1,-,-,EC50,-,TM90C2B,-,0.004 µM
C[C@H]1CCc2c([nH]c3ccccc23)[C@@]2(N1)C(=O)Nc1ccc(Cl)cc12,-,SYBR Green / fluorescence,EC50,-,KAE609R-3,KAE609-resistant (D1247Y),0.119 µM
NC1=Nc2ccc(Cl)cc2C1(O)C#Cc1ccccc1,-,-,EC50,-,3D7,-,1.16 µM
CC(C)C1=C(O)c2ccccc2C(=O)C1=O,Erythrocytes,flow cytometry,EC50,-,3D7,-,15.2 µM
C[C@H]1Cc2c([nH]c3cc(Cl)c(F)cc23)[C@@]2(N1)C(=O)Nc1ccc(Cl)cc12,-,SYBR Green / fluorescence,EC50,-,GNF-Pf4492R-1,GNF-Pf4492-resistant A211T,0.0000615 µM
CC[C@H]1OC(=O)[C@H](C)[C@@H](OC2C[C@@](C)(OC)[C@@H](O)[C@H](C)O2)[C@H](C)[C@@H](OC2O[C@H](C)C[C@H](N(C)C)[C@H]2O)[C@](C)(O)C[C@@H](C)CN(C)[C@H](C)[C@@H](O)[C@]1(C)O,RBC,fluorescence,EC50,120 h,3D7AziR,-,1.2 µM
Cc1ccccc1CC1(O)C(N)=Nc2ccc(Cl)cc21,-,-,EC50,-,3D7,-,0.063 µM
NCCNc1ccnc2cc(Cl)ccc12,-,LDH,EC50,-,K1,-,2.56 µM
C[C@H](NC(=O)[C@@H](O)C1CCCCC1)C(=O)N[C@@H]1C(=O)N(C)c2ccccc2-c2ccccc21,-,-,EC50,-,-,-,0.065 µM
N#Cc1nc2c(-c3nc4ccccc4[nH]3)c(N)n(CCc3ccccc3Cl)c2nc1C#N,Erythrocytes,hypoxanthine uptake / radiometric,EC50,-,NF54,-,0.28 µM
COc1ccc(Nc2nc(NCCCNc3ccnc4cc(Cl)ccc34)nc(N3CCOCC3)n2)cc1,-,-,EC50,-,D6,-,0.16 µM
CC(=O)O[C@H]1CC2C(C3CC[C@H](C(C)CCCNCCCCCCNc4ccnc5cc(Cl)ccc45)[C@]31C)[C@H](OC(C)=O)C[C@@H]1CC(=O)CC[C@]21C,-,SYBR Green,EC90,-,D6,-,0.00513 µM
NC1=Nc2ccc([N+](=O)[O-])cc2C1(O)c1ccccc1,-,-,EC50,-,3D7,-,>5 µM
CCc1ccc(Nc2nc(NCCCNc3ccnc4cc(Cl)ccc34)nc(N3CCOCC3)n2)cc1,-,-,EC50,-,D6,-,0.4 µM
O=C(CNc1ccnc2cc(Cl)ccc12)N[C@H]1C(=O)N(C2CCCCC2)[C@H]1/C=C/c1ccccc1,-,flow cytometry,EC50,-,W2,Chloroquine-resistant,0.5703 µM
CC[C@H]1OC(=O)[C@H](C)[C@@H](OC2C[C@@](C)(OC)[C@@H](O)[C@H](C)O2)[C@H](C)[C@@H](OC2O[C@H](C)C[C@H](N(C)C)[C@H]2O)[C@](C)(OC2C[C@@H](N(C)C)[C@@H](O)[C@H](C)O2)C[C@@H](C)C(=O)[C@H](C)[C@@H](O)[C@]1(C)O,RBC,fluorescence,EC50,48 h,W2 Mef,-,12.8 µM
N#Cc1nc2c(-c3nc4ccccc4[nH]3)c(N)n(CCc3ccc(N)cc3)c2nc1C#N,Erythrocytes,hypoxanthine uptake / radiometric,EC50,-,NF54,-,0.53 µM
O=C1[C@@H](NCCCNc2ccnc3cc(Cl)ccc23)[C@@H](/C=C/c2ccccc2)N1c1ccccc1,-,flow cytometry,EC50,-,W2,Chloroquine-resistant,0.1881 µM
CCN(CC)CCCC(C)Nc1ccnc2cc(Cl)ccc12,-,broth dilution,EC50,-,FCR3,-,0.18 µM
O=C1[C@@H](NCCCNc2ccnc3cc(Cl)ccc23)[C@@H](/C=C/c2ccccc2)N1C1CCCCC1,-,flow cytometry,EC50,-,W2,Chloroquine-resistant,0.1431 µM
Cn1cc(O)c(=O)cc1CNCCCCNc1ccnc2cc(Cl)ccc12,-,radiometric,EC50,-,K1,-,0.07 µM
O=C1Nc2ccccc2C1(O)c1ccccc1,-,-,EC50,-,3D7,-,>5 µM
CC(C)CN1C(=O)[C@H](NC(=O)CCCNc2ccnc3cc(Cl)ccc23)[C@@H]1/C=C/c1ccccc1,-,flow cytometry,EC50,-,W2,Chloroquine-resistant,0.6756 µM
Cn1cc(O)c(=O)cc1CNCCCCCCNc1ccnc2cc(Cl)ccc12,-,radiometric,EC50,-,K1,-,0.32 µM
O=C(/C=C/C=C/c1ccc2c(c1)OCO2)c1ccc(F)cc1,-,SYBR Green / fluorescence,EC50,-,Dd2,-,17 µM
CC(C)CC1(O)C(N)=Nc2ccc(Cl)cc21,-,-,EC50,-,3D7,-,0.232 µM
Cn1cc(O)c(=O)cc1CNCCNc1ccnc2cc(Cl)ccc12,-,radiometric,EC50,-,3D7,-,0.58 µM
CC(C)CN1C(=O)[C@H](NC(=O)CCCCCNc2ccnc3cc(Cl)ccc23)[C@@H]1/C=C/c1ccccc1,-,flow cytometry,EC50,-,W2,Chloroquine-resistant,0.3551 µM
NC1=Nc2ccc(Cl)cc2C1(O)c1cccc2ccccc12,-,-,EC50,-,3D7,-,0.03 µM
CN(CCCNc1ccnc2cc(Cl)ccc12)Cc1cc(=O)c(O)cn1C,-,radiometric,EC50,-,K1,-,0.04 µM
O=C1[C@@H](NCCNc2ccnc3cc(Cl)ccc23)[C@@H](/C=C/c2ccccc2)N1c1ccc(F)cc1,-,flow cytometry,EC50,-,W2,Chloroquine-resistant,0.0596 µM
COc1ccc(/C=C/C(=O)c2ccc(Cl)cc2)c(OC)c1OC,-,SYBR Green / fluorescence,EC50,-,3D7,-,3.4 µM

The last 7 rows once more:

structure | cells | method | endpoint | conditions | strain | mutations | value
CC(C)CC1(O)C(N)=Nc2ccc(Cl)cc21 | - | - | EC50 | - | 3D7 | - | 0.232 µM
Cn1cc(O)c(=O)cc1CNCCNc1ccnc2cc(Cl)ccc12 | - | radiometric | EC50 | - | 3D7 | - | 0.58 µM
CC(C)CN1C(=O)[C@H](NC(=O)CCCCCNc2ccnc3cc(Cl)ccc23)[C@@H]1/C=C/c1ccccc1 | - | flow cytometry | EC50 | - | W2 | Chloroquine-resistant | 0.3551 µM
NC1=Nc2ccc(Cl)cc2C1(O)c1cccc2ccccc12 | - | - | EC50 | - | 3D7 | - | 0.03 µM
CN(CCCNc1ccnc2cc(Cl)ccc12)Cc1cc(=O)c(O)cn1C | - | radiometric | EC50 | - | K1 | - | 0.04 µM
O=C1[C@@H](NCCNc2ccnc3cc(Cl)ccc23)[C@@H](/C=C/c2ccccc2)N1c1ccc(F)cc1 | - | flow cytometry | EC50 | - | W2 | Chloroquine-resistant | 0.0596 µM
COc1ccc(/C=C/C(=O)c2ccc(Cl)cc2)c(OC)c1OC | - | SYBR Green / fluorescence | EC50 | - | 3D7 | - | 3.4 µM